Pooled drug test results. Numbers come from NIAID ChemDB, via PubChem.

All rows: whole-cell or culture tests; organism: HIV-1

Lines come from different laboratories, so protocols vary. An empty or dashed field is not shown. ECn: concentration that inhibits the pathogen or its effect by n%.

structure	strain	changes	method	read-out	cell line	value
Nc1nc(=O)n([C@@H]2CS[C@H](CO)O2)cc1F	NL4-3	A114S/M184V	GFP	EC50	TZM-gfp	>100 µM
N#Cc1cc2[nH]c3ccccc3c2n(-c2ccc([N+](=O)[O-])cc2)c1=O	NNRTI-resistant	RT-G190S	luciferase	EC50	HeLa	0.265 µM
Cc1ccc(S(=O)(=O)N(CC(C)C)C[C@@H](O)[C@H](Cc2ccccc2)NC(=O)O[C@H]2CO[C@H]3OCC[C@H]32)cc1	IIIB	K112M K113E V128I M200I H219P I401T R409K D437N L441P	p24 / ELISA	EC50	MT-2	0.008 µM
CO[P@](=O)(c1cc(C)cc(/C=C/C#N)c1)c1c(C(N)=O)[nH]c2ccc(Cl)cc12	BH10	K103N	-	EC50	MT-4	0.0001 µM
Cc1ccnc2c1NC(=O)c1cccnc1N2C1CC1	BCF02	RT-A98G V106I Y181C	-	EC50	PBMC	21 µM
CCOP(=O)(COc1ccc(C[C@H](NC(=O)O[C@H]2CO[C@H]3OCC[C@H]32)[C@H](O)CN(CC(C)C)S(=O)(=O)c2ccc(OC)cc2)cc1)OCC	IIIB	8374-P362 GS-8374-resistant	ATP	EC50	MT-2	0.0725 µM
C/C=C/CSc1cc(NC(=S)c2ccsc2C)ccc1Cl	4xAZT	-	cytopathic effect / XTT	EC50	CEM + CEM-SS	0.02 µM
Cc1cn([C@H]2C[C@H](N=[N+]=[N-])[C@@H](CO)O2)c(=O)[nH]c1=O	WOME (syncytium-inducing)	-	cytopathic effect / XTT	EC50	PBMC	0.02 µM
COC(=O)N[C@H](C(=O)N[C@@H](Cc1ccccc1)[C@@H](O)CN(Cc1ccc(-c2ccccn2)cc1)NC(=O)[C@@H](NC(=O)OC)C(C)(C)C)C(C)(C)C	IIIB	D437N	p24 / ELISA	EC50	MT-2	0.0009 µM
O=c1c2ccccc2n2nnc3ccc(NCCCN4CCN(CCCNc5ccc6nnn7c8ccccc8c(=O)c5c67)CC4)c1c32	CLADE E	-	p24	EC50	PBL	0.008 µM
CC(C)OC(=O)OCOP(=O)(CO[C@H](C)Cn1cnc2c(N)ncnc21)OCOC(=O)OC(C)C	SUM9 (WT)	-	p24	EC50	MT-2	0.02 µM
CC(C)=CCN1Cc2cc(Cl)cc3[nH]c(=S)n(c23)C[C@@H]1C	BCF06	RT-A98G K103R	-	EC50	PBMC	>6.25 µM
CCOCn1c(Cc2cc(C)cc(C)c2)c(CC)c(=O)[nH]c1=O	IIIB E-EBU(RT-Y181C)	RT-Y181C	syncytia	EC50	CEM	1.1 µg/mL
Nc1ccn([C@H]2CC[C@@H](CO)O2)c(=O)n1	IIIB)(ddC	-	p24	EC50	MT-4	3.2 µM
CC(C)=CCN1Cc2cc(Cl)cc3[nH]c(=S)n(c23)C[C@@H]1C	SK1	-	cytopathic effect / MTT	EC50	CEM + CEM-SS	0.034 µM
S=C(NCCc1cccs1)Nc1ccc(Br)cn1	X267-1 Clinical isolate NRTI-resistant	RT-M41L L74CV L210W T215Y	p24	EC50	PBMC	0.004 µM
CCc1c(Sc2ccccn2)n(COCc2ccccc2)c(=O)[nH]c1=O	NL4-3	RT-K103E	cytopathic effect / XTT	EC50	CEM + CEM-SS	0.35 µM
Cc1ccnc2c1NC(=O)c1cccnc1N2C1CC1	Diphenyl sulfone-resistant (RT-Y181C)	RT-Y181C	cytopathic effect / XTT	EC50	CEM + CEM-SS	5.9 µM
Nc1ncnc2c1ncn2CCOCP(=O)(O)O	RT P119S V179D L214F	RT-P119S V179D L214F	p24	EC50	MT-2	1.2 µM
CN1N=C(N)c2cn([C@@H]3O[C@H](COP(=O)(O)O)[C@@H](O)[C@H]3O)c3ncnc1c23	RF	-	XTT	EC50	CEM + CEM-SS	0.03 µM
Cc1ccnc2c1NC(=O)c1cccnc1N2C1CC1	IIIB	-	cytopathic effect / XTT	EC50	CEM + CEM-SS	0.1 µM
Nc1ncnc2c1ncn2[C@@H]1O[C@H](CO)C[C@@H]1F	RT F77L/F116Y/Q151M	RT-F77L F116Y Q151M	p24	EC50	MT-2	18 µM
Cc1occc1C(=S)Nc1ccc(Cl)c(/C=N/OC(C)(C)C)c1	NL4-3 (RT V108I)	RT-V108I	cytopathic effect / XTT	EC50	CEM + CEM-SS	0.2 µM
Cc1ccnc2c1NC(=O)c1cccnc1N2C1CC1	-	RT-D67N K70R T215Y K219Q	-	EC95	MT-4	0.2 µM
Cc1ccnc2c1NC(=O)c1cccnc1N2C1CC1	Y181C (subtype B)	-	MTT	EC50	MT-4	0.9 µg/mL
O=C1N(Cc2ccc(CO)cc2)[C@H](Cc2ccccc2)[C@H](O)[C@@H](O)[C@@H](Cc2ccccc2)N1Cc1ccc(CO)cc1	NL4-3	PR-M46I L63P V82T I84V	p24	EC95	MT-4	3 µM
c1cc(CN2CCCNCCNCCCNCC2)ccc1CN1CCCNCCNCCCNCC1	Y188L (subtype B)	-	MTT	EC50	MT-4	0.001 µg/mL
CCOCn1c(Cc2ccccc2)c(CC)c(=O)[nH]c1=O	IIIB BHAP(RT-L100I)	RT-L100I	syncytia	EC50	CEM	0.09 µg/mL
CC(C)(C)NC(=O)[C@@H]1C[C@@H]2CCCC[C@@H]2CN1C[C@@H](O)[C@H](Cc1ccccc1)NC(=O)[C@H](CC(N)=O)NC(=O)c1ccc2ccccc2n1	RF	-	-	EC50	MT-2	0.019 µM
Cc1cn([C@H]2C[C@H](N=[N+]=[N-])[C@@H](CO)O2)c(=O)[nH]c1=O	HXB2D	-	p24	EC50	MT-2	0.013 µM
Cn1c2ccccc2c2c1cc(C#N)c(=O)n2-c1ccc([N+](=O)[O-])cc1	NL4-3 WT	-	luciferase	EC50	HeLa	0.0271 µM
CCOCn1c(Sc2ccccc2)c(CC)c(=O)[nH]c1=O	IIIB BHAP(RT-L100I)	RT-L100I	syncytia	EC50	CEM	0.03 µg/mL
Cc1cn([C@H]2C[C@H](N=[N+]=[N-])[C@@H](CO)O2)c(=O)[nH]c1=O	BCF03	RT-A98G Y181C	-	EC50	PBMC	<0.01 µM
Cc1ccnc2c1NC(=O)c1cccnc1N2C1CC1	IIIB PYR(RT-Y181C)	RT-Y181C	syncytia	EC50	CEM	2.5 µg/mL
Cc1cn([C@H]2C[C@H](N=[N+]=[N-])[C@@H](CO)O2)c(=O)[nH]c1=O	NL4-3	RT-V106I	cytopathic effect / XTT	EC50	CEM + CEM-SS	0.003 µM
O=c1[nH]cnc2c1ncn2[C@H]1CC[C@@H](CO)O1	GB8	-	p24	EC50	JM	4.4 µM
O=c1[nH]cnc2c1ncn2[C@H]1CC[C@@H](CO)O1	T215Y(RT-T215Y)	RT-T215Y	p24	EC50	MT-2	2.2 µM
CCNc1cccnc1N1CCN(C(=O)c2cc3cc(OC)ccc3[nH]2)CC1	IIIB NEV(RT-V106A)	RT-V106A	syncytia	EC50	CEM	0.4 µg/mL
CCc1c(CC2CCCCC2)nc(SCC(=O)c2ccccc2)[nH]c1=O	NL4-3	Y181C	p24 / ELISA	EC50	C8166	0.241 µM
O=c1[nH]cnc2c1ncn2[C@H]1CC[C@@H](CO)O1	Recombinant	RT-M41L V118I M184V	luciferase	EC50	HeLa	4.48 µM

A second listing of 4 rows from above:

| structure | strain | changes | method | read-out | cell line | value |
|---|---|---|---|---|---|---|
| Cc1ccnc2c1NC(=O)c1cccnc1N2C1CC1 | BCF02 | RT-A98G V106I Y181C | - | EC50 | PBMC | 21 µM |
| COC(=O)N[C@H](C(=O)N[C@@H](Cc1ccccc1)[C@@H](O)CN(Cc1ccc(-c2ccccn2)cc1)NC(=O)[C@@H](NC(=O)OC)C(C)(C)C)C(C)(C)C | IIIB | D437N | p24 / ELISA | EC50 | MT-2 | 0.0009 µM |
| Cc1cn([C@H]2C[C@H](N=[N+]=[N-])[C@@H](CO)O2)c(=O)[nH]c1=O | HXB2D | - | p24 | EC50 | MT-2 | 0.013 µM |
| CCc1c(Sc2ccccn2)n(COCc2ccccc2)c(=O)[nH]c1=O | NL4-3 | RT-K103E | cytopathic effect / XTT | EC50 | CEM + CEM-SS | 0.35 µM |